Pooled drug test results. Numbers come from NIAID ChemDB, via PubChem.

Shared fields: toxicity to cultured cells; cell line: MT-4; measure: CC50

Neighbouring rows are from separate reports. CCn: concentration that lowers growth or viability of the cells by n%. An empty or dashed field is not shown.

SMILES | method | result
Cc1cccc(C)c1OCC(=O)N[C@@H](Cc1ccccc1)[C@H](O)CN(CC(C)C)S(=O)(=O)c1ccc2nc(N)[nH]c2c1 | - | 64.6 µM
COc1c(-c2cc(C)n(-c3ccccc3)n2)c(O)c(S(=O)(=O)Oc2ccc(F)cc2)c2occc12 | MTT | 110 µM
CCC(C)Sc1nc(Cc2ccccc2)cc(=O)[nH]1 | - | 150 µM
O=C(COCC1Nc2ccccc2S(=O)(=O)n2cccc21)c1ccc(Cl)cc1 | - | 240 µM
CC(NC(=S)Nc1nc2ccccc2s1)c1ccccc1 | MTT | 38 µM
CN(C)C=Nc1ccn([C@H]2C[C@H](COC(=O)N[C@@H](Cc3ccccc3)C(=O)NC(=O)OC(C)(C)C)[C@@H](COC(=O)N[C@@H](Cc3ccccc3)C(=O)NC(=O)OC(C)(C)C)O2)c(=O)n1 | - | >300 µM
COC(=O)Nc1nc2ccc(S(=O)(=O)N(CC(C)C)C[C@@H](O)[C@H](Cc3ccccc3)NC(=O)COc3c(C)cc(N(C)C)cc3C)cc2[nH]1 | - | >100 µM
O=S(=O)(O)c1ccc2c(OS(=O)(=O)c3cccc4c(S(=O)(=O)O)cccc34)cc(S(=O)(=O)O)cc2c1 | - | >500 µM
CNC(=O)CC1(C(=O)NC)Nc2ccccc2S(=O)(=O)n2cccc21 | - | >255 µM
Cc1ccnc2c1NC(=O)c1cccnc1N2C1CC1 | MTT / absorbance | >15 µM
CC(C)CC(NC(=O)OC(C)(C)C)C(=O)N1CCC(O)C1 | - | >100 µM
CC(C)CN(C[C@@H](O)[C@H](Cc1ccccc1)NC(=O)OC1COC2OCCC12)S(=O)(=O)c1ccc2nc[nH]c2c1 | - | >100 µM
CCC(C)Sc1nc(Cc2cccc3ccccc23)cc(=O)[nH]1 | - | >200 µM
CS(=O)(=O)OCC1Nc2ccccc2S(=O)(=O)n2cccc21 | - | 130 µM
CC(C)c1nc(COC(=O)N[C@H](C(=O)N[C@@H](Cc2ccccc2)[C@H](O)CN2CCN(Cc3ccc(F)cc3)C[C@H]2C(=O)NC(C)(C)C)C(C)C)cs1 | - | 15 µM
O=C(OC[C@H]1O[C@@H](OC(=O)c2cc(OS(=O)(=O)O)c(OS(=O)(=O)O)c(OS(=O)(=O)O)c2)[C@H](OC(=O)c2cc(OS(=O)(=O)O)c(OS(=O)(=O)O)c(OS(=O)(=O)O)c2)[C@@H](OC(=O)c2cc(OS(=O)(=O)O)c(OS(=O)(=O)O)c(OS(=O)(=O)O)c2)[C@@H]1OC(=O)c1cc(OS(=O)(=O)O)c(OS(=O)(=O)O)c(OS(=O)(=O)O)c1)c1cc(OS(=O)(=O)O)c(OS(=O)(=O)O)c(OS(=O)(=O)O)c1 | - | 197 µg/mL
O=[N+]([O-])CC1Nc2ccccc2S(=O)(=O)n2cccc21 | - | 14 µM
CC(C)(C)OC(=O)NC(Cc1ccc(O)cc1)C(=O)N1CCC(=O)C1 | - | 50 µM
Cc1ccc(N2C(=O)CS/C2=N\c2nc3ccccc3s2)cc1 | MTT | >100 µM
CC(=O)c1ccc(NC(=O)COc2cccnc2-c2cccc3ccccc23)c(Br)c1 | MTT / absorbance | 5.51 µM
Cc1c(C(C)(O)c2cccc3ccccc23)n(COCc2ccccc2)c(=O)[nH]c1=O | MTT | 41.78 µM
CC(C)CN(C[C@@H](O)[C@H](Cc1ccccc1)NC(=O)OCc1cncs1)S(=O)(=O)c1ccc2ncn(CC(C)C)c2c1 | - | 63.1 µM
Nc1nc(=O)n([C@@H]2CC[C@H](CO)O2)cc1F | - | 20 µM
CN(C)C=Nc1ccn([C@H]2C[C@H](CO)[C@@H](CO)O2)c(=O)n1 | - | >300 µM
O=C1CC2c3cccn3S(=O)(=O)c3ccccc3N12 | - | 365 µM
CCC(C)Sc1nc(Cc2cccc3ccccc23)c(CN2CCCCC2)c(=O)[nH]1 | - | 26 µM
CC(C)(C)OC(=O)N1CCC(=O)C1 | - | >100 µM
COc1ccc(C(O)(c2c(C)c(=O)[nH]c(=O)n2COCc2ccccc2)C(C)C)cc1 | MTT | 90.18 µM
CCOC(=O)c1c(CSc2ccccc2)n(C)c2cc(Br)c(O)c(CN(C)C)c12 | MTT | 23 µM
COc1c(C(=O)/C=C(/C)Nc2ccc(F)cc2)c(O)c(S(=O)(=O)Oc2ccc(F)cc2)c2occc12 | MTT | 340 µM
CC(C)CN(C[C@@H](O)[C@H](Cc1ccccc1)NC(=O)O[C@H]1CO[C@H]2OCC[C@H]21)S(=O)(=O)c1ccc2ncn(CCc3ccccc3)c2c1 | - | 79.4 µM
CC(C)c1c(C(C)c2ccc(F)cc2)n(COCc2ccccc2)c(=O)[nH]c1=O | MTT | 33.73 µM
O=c1ccn(C23C=C[C@@H](CO)[C@@H]2C3)c(=O)[nH]1 | MTT | >100 µg/mL
CCOC(=O)c1cccn1S(=O)(=O)c1cc(Cl)ccc1NC(C)=O | - | >200 µM
CCOCn1c(C(O)C2=CCCCC2)c(CC)c(=O)[nH]c1=O | MTT | >100 µM
Cc1cn([C@H]2C[C@H](N=[N+]=[N-])[C@@H](CO)O2)c(=O)[nH]c1=O | - | 45 µM
CC1(C)CC=C(c2cn(-c3nccc(C(=O)NC4CCC(N5CC6CCC(C5)O6)CC4)n3)c3ccc(F)c([C@H](OC(C)(C)C)C(=O)O)c23)CC1 | luminescence | 6.84 µM
CC(C)[C@H](NC(=O)N(C)Cc1cncs1)C(=O)N[C@@H](Cc1ccccc1)[C@H](O)CN1CCN(Cc2cncs2)C[C@H]1C(=O)NC(C)(C)C | - | >100 µM
O=C(O)CC1Nc2ccccc2S(=O)(=O)n2cccc21 | - | >342 µM
NS(=O)(=O)c1ccc(NC(=O)COc2cccnc2-c2ccc(C(F)(F)F)cc2)cc1 | MTT / absorbance | 220 µM
CCCCC(=O)Nc1ccc(Cl)cc1S(=O)(=O)n1cccc1C(=O)OCC | - | >200 µM
Cc1cn([C@H]2C[C@@H](OCP(=O)(O)O)CO2)c(=O)[nH]c1=O | - | >343 µM
COc1cc2c(cc1Cc1cccc(Cl)c1F)c(=O)c(C(=O)O)cn2[C@H](CO)C(C)C | luminescence | 4.197 µM
CCOC(=O)CC1Nc2ccccc2S(=O)(=O)n2cccc21 | - | >312 µM
C=C(C)[C@@H]1CC[C@]2(C(=O)OC[C@H]3OC(n4cc(C)c(OC(=O)OCC)nc4=O)C[C@@H]3N=[N+]=[N-])CC[C@]3(C)[C@H](CC[C@@H]4[C@@]5(C)CC[C@H](O)C(C)(C)[C@@H]5CC[C@]43C)[C@@H]12 | - | 35 µM
O=C(OCC1Nc2ccccc2S(=O)(=O)n2cccc21)c1ccc(Cl)cc1 | - | 186 µM
COC(=O)Nc1nc2ccc(S(=O)(=O)N(CC(C)C)C[C@@H](O)[C@H](Cc3ccccc3)NC(=O)c3ccc(N)cc3C)cc2[nH]1 | - | 79.4 µM
CC(C)[C@H](NC(=O)OCc1cncs1)C(=O)N[C@@H](Cc1ccccc1)[C@H](O)CN1CCN(Cc2cncs2)C[C@H]1C(=O)NC(C)(C)C | - | >100 µM
O=S(=O)(c1cccc2cnccc12)N1CCNCC1 | - | 14.8 µg/mL
S=C(NCc1ccco1)Nc1nc2ccccc2s1 | MTT | 67 µM
COc1c(C(=O)/C=C(/C)Nc2ccc([N+](=O)[O-])cc2)c(O)c(S(=O)(=O)Oc2ccc([N+](=O)[O-])cc2)c2occc12 | MTT | 380 µM
C=C(c1cccc2ccccc12)c1c(C)c(=O)[nH]c(=O)n1COCc1ccccc1 | MTT | 30.97 µM
CCOC(=O)c1cccn1S(=O)(=O)c1cc(Cl)ccc1NC(=O)CC | - | >200 µM
Nc1ccn([C@H]2C[C@H](CO)[C@@H](CO)O2)c(=O)n1 | - | >300 µM
COc1c2ccoc2c(S(=O)(=O)Oc2ccc([N+](=O)[O-])cc2)c2oc(C)cc(=O)c12 | MTT | 560 µM
CCOCn1c(Cc2ccccc2)c(C(C)C)c(=O)[nH]c1=O | MTT | >100 µM
Fc1ccccc1NC(=S)Nc1nc2ccccc2s1 | MTT | 27 µM
CC(C)c1nc(COC(=O)N[C@@H](C(=O)N[C@@H](Cc2ccccc2)[C@H](O)CN2CCN(Cc3cncs3)C[C@H]2C(=O)NC(C)(C)C)C(C)C)cs1 | - | 18 µM
COc1ccc(OS(=O)(=O)c2c3occc3c(OC)c3c(=O)cc(C)oc23)cc1 | MTT | 490 µM
CC(C)c1nc(COC(=O)N[C@H](C(=O)N[C@@H](Cc2ccccc2)[C@H](O)CN2CCN(Cc3ccc4c(c3)OCO4)C[C@H]2C(=O)NC(C)(C)C)C(C)C)cs1 | - | 13 µM
C/C=C/C=C/C=NC=Nc1ccn([C@H]2C[C@H](CO)[C@@H](CO)O2)c(=O)n1 | - | >300 µM
CC(=O)Nc1nc2ccc(S(=O)(=O)N(CC(C)C)C[C@@H](O)[C@H](Cc3ccccc3)NC(=O)O[C@H]3CCOC3)cc2[nH]1 | - | >100 µM
COc1c(-c2cc(C)n(-c3ccccc3)n2)c(O)c(S(=O)(=O)Oc2ccc([N+](=O)[O-])cc2)c2occc12 | MTT | 120 µM
CC(C)(C)OC(=O)NC(Cc1ccc(OCc2ccccc2)cc1)C(=O)N1CCC(O)C1 | - | >100 µM
CC(C)CN(C[C@@H](O)[C@H](Cc1ccccc1)NC(=O)O[C@H]1CO[C@H]2OCC[C@H]21)S(=O)(=O)c1ccc2nc(CO)[nH]c2c1 | - | >100 µM

The last 8 rows once more:

CC(C)c1nc(COC(=O)N[C@@H](C(=O)N[C@@H](Cc2ccccc2)[C@H](O)CN2CCN(Cc3cncs3)C[C@H]2C(=O)NC(C)(C)C)C(C)C)cs1 ; result: 18 µM
COc1ccc(OS(=O)(=O)c2c3occc3c(OC)c3c(=O)cc(C)oc23)cc1 ; method: MTT ; result: 490 µM
CC(C)c1nc(COC(=O)N[C@H](C(=O)N[C@@H](Cc2ccccc2)[C@H](O)CN2CCN(Cc3ccc4c(c3)OCO4)C[C@H]2C(=O)NC(C)(C)C)C(C)C)cs1 ; result: 13 µM
C/C=C/C=C/C=NC=Nc1ccn([C@H]2C[C@H](CO)[C@@H](CO)O2)c(=O)n1 ; result: >300 µM
CC(=O)Nc1nc2ccc(S(=O)(=O)N(CC(C)C)C[C@@H](O)[C@H](Cc3ccccc3)NC(=O)O[C@H]3CCOC3)cc2[nH]1 ; result: >100 µM
COc1c(-c2cc(C)n(-c3ccccc3)n2)c(O)c(S(=O)(=O)Oc2ccc([N+](=O)[O-])cc2)c2occc12 ; method: MTT ; result: 120 µM
CC(C)(C)OC(=O)NC(Cc1ccc(OCc2ccccc2)cc1)C(=O)N1CCC(O)C1 ; result: >100 µM
CC(C)CN(C[C@@H](O)[C@H](Cc1ccccc1)NC(=O)O[C@H]1CO[C@H]2OCC[C@H]21)S(=O)(=O)c1ccc2nc(CO)[nH]c2c1 ; result: >100 µM